{"source": "patent US20080241276A1", "about": "“Portable bio-chemical decontaminant system and method of using the same” (published 2008)", "key": {"Pseudomonas aeruginosa [1]": {"system": "Pseudomonas aeruginosa", "test": "In vitro carrier testing (Germicidal Spray Test)", "conditions": "200 ppm, 10 minute exposure, glass carriers, 5% horse serum"}, "Salmonella choleraesuis": {"system": "Salmonella choleraesuis", "test": "In vitro carrier testing (Germicidal Spray Test)", "conditions": "200 ppm, 10 minute exposure, glass carriers, 5% horse serum"}, "[2]": {"system": "various solutions of microorganisms", "test": "In vitro suspension test (FIG. 19)", "conditions": "1 ppm, contact time approximately one minute"}, "[3]": {"system": "microbes deposited on hard substrates", "test": "In vitro surface test (FIG. 20)", "conditions": "100 ppm, contact time ten minutes"}, "[4]": {"system": "Bacillus cereus vegetative cells", "test": "Aqueous sporocidal testing, vegetative cells, 5-min treatment", "conditions": "after 5-min treatment"}, "Bacillus cereus spores": {"system": "Bacillus cereus spores", "conditions": "for Population, spores / Reduction vs. Water, spores: after 5-min treatment"}, "Pseudomonas aeruginosa [5]": {"system": "Pseudomonas aeruginosa", "test": "In vitro carrier testing (Quantitative Use-Dilution Test)", "conditions": "40 ppm, 1 minute exposure, stainless steel carriers, 5% horse serum"}, "Escherichia coli": {"system": "Escherichia coli", "test": "In vitro carrier testing (Quantitative Use-Dilution Test)", "conditions": "40 ppm, 1 minute exposure, stainless steel carriers, 5% horse serum"}, "rhinovirus": {"system": "rhinovirus", "test": "Antimicrobial efficacy (FIG. 7), one minute", "conditions": "lapse time one minute; below detection limit"}, "B. Cereus spores": {"system": "B. Cereus spores", "test": "Antimicrobial efficacy (FIG. 7), one minute", "conditions": "lapse time one minute; below detection limit"}, "S. aureus": {"system": "S. aureus", "test": "Antimicrobial efficacy (FIG. 7), one minute", "conditions": "lapse time one minute; below detection limit"}, "FR": {"system": "FR", "test": "Antimicrobial efficacy (FIG. 7), one minute", "conditions": "lapse time one minute; below detection limit"}, "P. aeruginosa": {"system": "P. aeruginosa", "test": "Antimicrobial efficacy (FIG. 7), one minute", "conditions": "lapse time one minute; below detection limit"}, "rotavirus": {"system": "rotavirus", "test": "Antimicrobial efficacy (FIG. 7), one minute", "conditions": "lapse time one minute; below detection limit"}, "E. coli": {"system": "E. coli", "test": "Antimicrobial efficacy (FIG. 7), one minute", "conditions": "lapse time one minute; below detection limit"}, "poliovirus": {"system": "poliovirus", "test": "Antimicrobial efficacy (FIG. 7), one minute", "conditions": "lapse time one minute; below detection limit"}, "S. choleraesuis": {"system": "S. choleraesuis", "test": "Antimicrobial efficacy (FIG. 7), one minute", "conditions": "lapse time one minute; below detection limit"}}, "note": "Where two headings read alike, the source gives them in different places.", "data": [{"substance": "chlorine dioxide", "values": [{"measurement": "log reduction", "setting": "Pseudomonas aeruginosa [1]", "value": "greater than or equal to 5 log"}, {"measurement": "log reduction", "setting": "Salmonella choleraesuis", "value": "greater than or equal to 5 log"}, {"measurement": "antimicrobial efficacy in suspension", "setting": "[2]", "value": "total kill"}, {"measurement": "surface test kill", "setting": "[3]", "value": "complete kill"}, {"measurement": "Population, vegetative cells", "setting": "[4]; 5 ppm", "value": 3.88, "unit": "log10 cfu/ml"}, {"measurement": "Reduction vs. Water, vegetative cells", "setting": "[4]; 5 ppm", "value": 1.52, "unit": "log10 cfu/ml"}, {"measurement": "Population, vegetative cells", "setting": "[4]; 10 ppm", "value": 3.88, "unit": "log10 cfu/ml"}, {"measurement": "Reduction vs. Water, vegetative cells", "setting": "[4]; 10 ppm", "value": 1.52, "unit": "log10 cfu/ml"}, {"measurement": "Population, vegetative cells", "setting": "[4]; 50 ppm", "value": 3.22, "unit": "log10 cfu/ml"}, {"measurement": "Reduction vs. Water, vegetative cells", "setting": "[4]; 50 ppm", "value": 2.18, "unit": "log10 cfu/ml"}, {"measurement": "Population, vegetative cells", "setting": "[4]; 100 ppm", "value": 0.15, "unit": "log10 cfu/ml"}, {"measurement": "Reduction vs. Water, vegetative cells", "setting": "[4]; 100 ppm", "value": 5.25, "unit": "log10 cfu/ml"}, {"measurement": "Population, vegetative cells", "setting": "[4]; 200 ppm", "value": "<0.30^2 log10 cfu/ml"}, {"measurement": "Reduction vs. Water, vegetative cells", "setting": "[4]; 200 ppm", "value": ">5.10", "unit": "log10 cfu/ml"}, {"measurement": "Population, spores", "setting": "Bacillus cereus spores; 5 ppm", "value": 5.93, "unit": "log10 cfu/ml"}, {"measurement": "Reduction vs. Water, spores", "setting": "Bacillus cereus spores; 5 ppm", "value": 0.15, "unit": "log10 cfu/ml"}, {"measurement": "Population, spores", "setting": "Bacillus cereus spores; 10 ppm", "value": 5.72, "unit": "log10 cfu/ml"}, {"measurement": "Reduction vs. Water, spores", "setting": "Bacillus cereus spores; 10 ppm", "value": 0.36, "unit": "log10 cfu/ml"}, {"measurement": "Population, spores", "setting": "Bacillus cereus spores; 50 ppm", "value": 4.74, "unit": "log10 cfu/ml"}, {"measurement": "Reduction vs. Water, spores", "setting": "Bacillus cereus spores; 50 ppm", "value": 1.34, "unit": "log10 cfu/ml"}, {"measurement": "Population, spores", "setting": "Bacillus cereus spores; 100 ppm", "value": 0.20, "unit": "log10 cfu/ml"}, {"measurement": "Reduction vs. Water, spores", "setting": "Bacillus cereus spores; 100 ppm", "value": 5.88, "unit": "log10 cfu/ml"}, {"measurement": "Population, spores", "setting": "Bacillus cereus spores; 200 ppm", "value": "<0.30", "unit": "log10 cfu/ml"}, {"measurement": "Reduction vs. Water, spores", "setting": "Bacillus cereus spores; 200 ppm", "value": ">5.78", "unit": "log10 cfu/ml"}, {"measurement": "log reduction of viable spore counts (complete kill)", "setting": "Bacillus cereus spores; 200 ppm, within 5 min", "value": "> 6", "unit": "log"}, {"measurement": "log kill of Bacillus cereus spores", "setting": "Bacillus cereus spores; FIG. 18, cocktail of five strains", "value": "total kill"}, {"measurement": "log reduction", "setting": "Pseudomonas aeruginosa [5]", "value": "greater than or equal to 5 log"}, {"measurement": "log reduction", "setting": "Escherichia coli", "value": "greater than or equal to 5 log"}, {"measurement": "log kill", "setting": "rhinovirus", "value": "greater than 5 log"}, {"measurement": "log kill", "setting": "B. Cereus spores", "value": "greater than 6 log"}, {"measurement": "log kill", "setting": "S. aureus", "value": "greater than 6 log"}, {"measurement": "log kill", "setting": "FR", "value": "greater than 5 log"}, {"measurement": "log kill", "setting": "P. aeruginosa", "value": "greater than 6 log"}, {"measurement": "log kill", "setting": "rotavirus", "value": "greater than 4 log"}, {"measurement": "log kill", "setting": "E. coli", "value": "greater than 6 log"}, {"measurement": "log kill", "setting": "poliovirus", "value": "greater than 4 log"}, {"measurement": "log kill", "setting": "S. choleraesuis", "value": "greater than 5 log"}]}]}
